Measurements reported in patent publication US20220153786A1, “PEPTIDES FOR PREVENTING BIOFILM FORMATION” (priority 2019, published 2022).
“Also recorded” adds a separate entry of the source.

System: S. epidermidis cultures
Assay: Confocal fluorescence microscopy (CFM) localisation of FITC-labelled peptide
Format: cell-based, Staphylococcus epidermidis
Conditions: 10 μM FITC-labelled peptide, 1, 4 or 24 h

Capsicumicine-fluorescein isothiocyanate [capsicumicine-FITC]
localisation of peptide (CFM): stays associated with extracellular matrix components; also recorded: exclusively on the matrix
